Tested on: MT-2 cells
Assay: Intracellular nucleotides formed in MT-2 cells
Type: in vitro ADME
Details: 48 hr treatment; cells not given

Row | SMILES | dNTP levels (all but dGTP) after treatment
1 | [N-]=[N+]=NC1C[C@H](n2cnc3c(O)nc(N)nc32)O[C@@H]1CO (some centres unmarked) [Compound 56, 3′-Azido-2′,3′-dideoxyguanosine] | doubled
2 | [N-]=[N+]=N[C@H]1C[C@H](n2cnc3c(Cl)nc(N)nc32)O[C@@H]1CO [Compound 68, ((2S,3S,5R)-5-(2-amino-6-chloro-9H-purin-9-yl)-3-azidotetrahydrofuran-2-yl)methanol] | doubled
